Measured values from several laboratories, pooled; numbers as filed in NIAID ChemDB.

Shared fields: growth or infection tests; species: Herpes simplex virus 1; read by: plaque count; endpoint: inhibition

Lines come from different laboratories, so protocols vary. Inhibition is in % at the dose shown (toxicity tests: loss of growth or viability). Blank or dashed fields: not listed here.

smiles | dose | cells | strain or isolate | value
Cc1ccccc1Cn1cnc(=N)c2[nH]cnc21 | 25 µg/mL | BSC-1 | - | 0%
COc1ccc(NC(=O)Nc2ccc([N+](=O)[O-])cc2)cc1NC(=O)Nc1ccc([N+](=O)[O-])cc1 | 5 µM | VERO | - | 0%
C/C=C/c1cn([C@@H]2O[C@H](CO)[C@@H](O)[C@@H]2O)c(=O)[nH]c1=O | 100 µM | VERO | TK- | <0%
CCCCn1cnc(=N)c2[nH]cnc21 | 12 µg/mL | BSC-1 | - | 0%
CC(C)C[C@H](NC(=O)[C@@H]1O[C@H]1C(=O)O)C(=O)NCCCCN=C(N)N | 40 µM | CV-1 | Fukuda | 22%
Nc1ncnc2nc(-c3cscn3)[nH]c12 | 100 µg/mL | VERO | - | 0%
Cc1ccc(NC(=S)Nc2ccc(Cl)cc2)cc1NC(=S)Nc1ccc(Cl)cc1 | 5 µM | VERO | - | 0%
N=c1ncn(Cc2ccco2)c2nc[nH]c12 | 6 µg/mL | BSC-1 | - | 0%
COc1ccc(NC(=O)Nc2ccc(C)cc2)cc1NC(=O)Nc1ccc(C)cc1 | 5 µM | VERO | - | <50%
Cc1ccc(Cn2cnc(=N)c3[nH]cnc32)cc1 | 25 µg/mL | BSC-1 | - | 0%
O=[N+]([O-])c1ccc(NC(=S)Nc2ccc(Oc3ccc(NC(=S)Nc4ccc([N+](=O)[O-])cc4)cc3)cc2)cc1 | 5 µM | VERO | - | 0%
CN1C(=O)NC(=O)N([C@H]2C[C@H](O)[C@@H](CO)O2)C1(C)C | 25 µM | BHK-21 | 42D | 95%
CC(=O)N[C@@H](CC(C)C)C(=O)N[C@@H](CC(C)C)C(=O)N[C@H](C=O)CCCN=C(N)N | 10 µM | CV-1 | Fukuda | 28%
O=C(Nc1ccc(Oc2ccc(NC(=O)c3ccco3)cc2)cc1)c1ccco1 | 5 µM | VERO | - | <50%
Nc1nc2c(ncn2COC(CO)CO)c(=O)[nH]1 | 1 µM | WI-38 | KOS mutant PFA-R2 | 90%
N=c1ncn(CC2CCCCC2)c2nc[nH]c12 | 50 µg/mL | BSC-1 | - | 0%
C/C=C/c1cn([C@H]2C[C@H](O)[C@@H](CO)O2)c(=O)[nH]c1=O | 0.1 µM | VERO | C42 | 17%
O=S(=O)(c1ccc(OCc2ccncc2)cc1)c1ccc(OCc2ccncc2)cc1 | 30 µM | VERO | - | <50%

Repeating the final 2 entries:

smiles,dose,cells,strain or isolate,value
C/C=C/c1cn([C@H]2C[C@H](O)[C@@H](CO)O2)c(=O)[nH]c1=O,0.1 µM,VERO,C42,17%
O=S(=O)(c1ccc(OCc2ccncc2)cc1)c1ccc(OCc2ccncc2)cc1,30 µM,VERO,-,<50%